# According to patent publication US8980917B2, “Methods for treating or preventing brain infections” (The Johns Hopkins University, priority 2008, dated 2015):
# Tested on: E. coli K1 strain RS218
# Assay: Mouse model of experimental hematogenous E. coli meningitis (5-LO-/- and wild-type 129SvEv mice)
# Type: in vivo
# Conditions: wild type mice; oral 400 μg/mouse one hour before bacterial injection; compared to vehicle control
# Source text: Female 5-LO−/− (129-Alox5^tm1Fun/J) and strain-matched (129SvEv) wild-type mice, 9˜12 week old and 18˜26 gm, were used (23). […] Most animals receiving 1×10^7 CFUs, however, died between one and two hour of intravenous inoculation. Based on these observations, we examined and compared E. coli K1 penetration into the brain at one hour following intravenous administration of 1×10^7 CFUs of strain RS218 in 5-LO−/− and wild type mice.
# Mice were anesthetized with pentobarbital sodium given subcutaneously at 50 mg/kg and each mouse received 1×10^7 CFU of E. coli RS218 in 100 μl PBS via the tail vein. One hour later, mouse chest was cut open, and blood from right ventricle was collected and plated for bacterial counts (CFUs). The mouse was, then, perfused with a mammalian Ringer's solution by transcardiac perfusion through a 23-gauge needle inserted into the left ventricle of the heart under the perfusion pressure of about 100 mmHg. The perfusate exited through a cut in the right atrium. The composition of the mammalian Ringer solution was: (in mM) 132 NaCl, 4.6 KCl, 2 CaCl2, 1.2 MgSO4, 5.5 glucose, 5.0 NaHCO3, and 20 HEPES and Na-HEPES, containing 10 mg/ml BSA; pH of the Ringer solution was maintained at 7.40-7.45 by adjustment of the ratio of Na-HEPES to HEPES. […] Bacterial penetration into the brain was also expressed as (brain CFUs per gm/blood CFUs per ml)×100. […]
compound,measurement,value
CN(C)C(=O)CCSC(SCCC(=O)O)c1cccc(/C=C/c2ccc3ccc(Cl)cc3n2)c1 (stereo not shown) [MK571],"bacterial counts in the blood, spleens and kidneys","did not affect the bacterial counts in the blood, spleens and kidneys"
